Experimental data: patent publication US20250313611A1 (VIB VZW, published 2025)

Experiments:
[1] = biological target: T1, SARS-COV-2 Omicron BA.1 S protein (ACRObiosystems) (SARS-CoV-2 Omicron BA.1); assay: ELISA, coated antigen, dilution series, OD450 [2/3]
[2] = biological target: T1, SARS-COV-2 Omicron BA.1 S protein …; assay: ELISA, coated antigen, dilution series, OD450 [1/3]

Row | Binder | EC50 (read off the curve) [1] [ng/mL] | EC50 (read off the curve) [2] [ng/mL]
1 | VHH R3_DC2 (VHH) VHH: QVQLQESGGGLVQTGDSLRLSCAVSGRPFSTYTMGWFRQAPGKEREFVASMRWSGGTKYYSDSVKGRFSISRDNDQNTVNLQMNSLKPEDTAVYYCAAAYVSKANYGSLWYRNSGLYDYWGQGTQVTVSS | ~6 | 
2 | VHH R4_DC16 (VHH) VHH: QVQLQESGGGLVQAGDSLRLSCAVSGRPFSTYTMGWFRQAPGKEREFVAAMRWSGGTIYYADSVKGRFTISRDNAQNTVNLQMNSLKPEDTAVYYCAAAYVSKANYGSSWYRNSGLYDYWGQGTQVTVSS | ~10 | 
3 | VHH R4_DC20 (VHH) VHH: QVQLQESGGGLVQTGDSLRLSCAVSGRPFSTYTMGWFRQAPGKEREFVASMRWSGGTMNYADSVKGRFTISRDNDQNTVNLQMNSLKPEDTAVYYCAAAYVSKANYGSLWYRNSGLYDYWGQGTQVTVSS |  | ~5
